Compound potency records, mixed from different reports. Data source: NIAID ChemDB in PubChem.

All rows: whole-cell or culture tests; organism: Mycobacterium fortuitum; read-out: MIC90

Blank or dashed fields: not listed here. Rows are shuffled and stem from different studies. MIC50, MIC90 and the like: level of inhibition, or share of isolates inhibited.

| compound | strain or isolate | read by | result |
|---|---|---|---|
| C[C@H]1C[C@H](N)CN1c1cc2c(cc1F)c(=O)c(C(=O)O)cn2-c1ccc(F)cc1F | 25 isolates |  | >8 µg/mL |
| Cc1noc(N)c1C(=O)N/N=C/c1ccc(O)cc1 | PCM 672 | resazurin | >100 µg/mL |
| CN[C@@H]1[C@H](O[C@H]2[C@H](O[C@H]3[C@H](O)[C@@H](O)[C@H](N=C(N)N)[C@@H](O)[C@@H]3N=C(N)N)O[C@@H](C)[C@]2(O)C=O)O[C@@H](CO)[C@H](O)[C@H]1O | 31 isolates |  | >64 µg/mL |
| Cc1noc2nc(C)n(/N=C/c3ccccc3)c(=O)c12 | PCM 672 | resazurin | >100 µg/mL |
| C[C@@H]1CN(c2c(F)c(N)c3c(=O)c(C(=O)O)cn(C4CC4)c3c2F)C[C@H](C)N1 | 20 strains |  | 1.56 µg/mL |
| NC[C@H]1O[C@H](O[C@H]2[C@H](O)[C@@H](O[C@H]3O[C@H](CO)[C@@H](O)[C@H](N)[C@H]3O)[C@H](N)C[C@@H]2N)[C@H](O)[C@@H](O)[C@@H]1O | 31 isolates |  | >64 µg/mL |
| COc1ccc(/C=N/n2cnc3onc(C)c3c2=O)cc1 | PCM 672 | resazurin | >100 µg/mL |
| CC1CN(c2cc3c(cc2F)c(=O)c(C(=O)O)cn3-c2ccc(F)cc2F)CCN1 | 25 isolates |  | 8 µg/mL |
| NCC[C@H](O)C(=O)N[C@@H]1C[C@H](N)[C@@H](O[C@H]2O[C@H](CN)[C@@H](O)[C@H](O)[C@H]2O)[C@H](O)[C@H]1O[C@H]1O[C@H](CO)[C@@H](O)[C@H](N)[C@H]1O | 31 isolates |  | 16 µg/mL |
| Cc1noc2nc(C)n(/N=C/c3ccc(C(F)(F)F)cc3)c(=O)c12 | PCM 672 | resazurin | >100 µg/mL |
| C[C@H]1COc2c(N3CCN(C)CC3)c(F)cc3c(=O)c(C(=O)O)cn1c23 | 25 isolates |  | 4 µg/mL |
| COc1ncccc1Nc1cc2nc3ccccc3n(-c3ccc(OC(F)(F)F)cc3)c-2cc1=NC1CCC(OC)CC1 |  | fluorescence | 0.688 µg/mL |
| CC1COc2c(N3CCN(C)CC3)c(F)cc3c(=O)c(C(=O)O)cn1c23 | 18367 |  | 6.25 µg/mL |
| NCC[C@H](O)C(=O)N[C@@H]1C[C@H](N)[C@@H](O[C@H]2O[C@H](CN)[C@@H](O)[C@H](O)[C@H]2O)[C@H](O)[C@H]1O[C@H]1O[C@H](CO)[C@@H](O)[C@H](N)[C@H]1O |  | broth dilution | ≤2 µg/mL |
| COc1ccc(/C=N/n2c(C)nc3onc(C)c3c2=O)cc1 | PCM 672 | resazurin | >100 µg/mL |
| C[C@@H]1CN(c2c(F)c(N)c3c(=O)c(C(=O)O)cn(C4CC4)c3c2F)C[C@H](C)N1 | 25 isolates |  | 2 µg/mL |
| Cc1ccc(/C=N/NC(=O)c2c(C)noc2N)cc1 | PCM 672 | resazurin | >100 µg/mL |
| NC1CCN(c2c(F)cc3c(=O)c(C(=O)O)cn(C4CC4)c3c2Cl)C1 | 25 isolates |  | 2 µg/mL |

Repeating the final 2 entries:

compound | strain or isolate | read by | result
Cc1ccc(/C=N/NC(=O)c2c(C)noc2N)cc1 | PCM 672 | resazurin | >100 µg/mL
NC1CCN(c2c(F)cc3c(=O)c(C(=O)O)cn(C4CC4)c3c2Cl)C1 | 25 isolates |  | 2 µg/mL